# Laboratory results as given in ChEMBL document CHEMBL3232931 (J Med Chem, 2014).
# Assay: Therapeutic index, ratio of CC50 for african green monkey Vero E6 cells to EC50 for SARS coronavirus infected in african green monkey Vero E6 cells
# Type: cell-based
row,SMILES,Ratio CC50/EC50
1,COc1cc(CNC(=O)C2CCN([C@H](C)c3cccc4ccccc34)CC2)ccn1,> 10.5
2,C[C@H](c1cccc2ccccc12)N1CCC(C(=O)NCc2ccc3c(c2)OCO3)CC1,> 7.8
